Compound potency records, mixed from different reports. Data source: NIAID ChemDB in PubChem.

Shared fields: growth or infection tests; agent: Haemophilus influenzae; endpoint: MIC

Rows are shuffled and stem from different studies.

structure	strain or isolate	result
CC[C@H]1OC(=O)[C@H](C)C(=O)[C@H](C)[C@@H](O[C@@H]2O[C@H](C)C[C@H](N(C)C)[C@H]2O)[C@@]2(C)C[C@@H](C)/C(=N\C(=O)OC)[C@H](C)C(OC/C(=C\C=C\c3ccccc3)CO2)[C@]1(C)O	33929 (ampicillin-resistant)	32 µg/mL
CC[C@H]1OC(=O)[C@H](C)C(=O)[C@H](C)[C@@H](O[C@@H]2O[C@H](C)C[C@H](N(C)C)[C@H]2O)[C@@]2(C)C[C@@H](C)C(=NC(C)=O)[C@H](C)[C@@H](OC/C(=N\OCc3ccc4nc(N)sc4c3)CO2)[C@]1(C)O	33929 (ampicillin-resistant)	2 µg/mL
CC(=O)NC[C@H]1CN(c2ccc(-c3noc(C)n3)c(F)c2)C(=O)O1	UC 30063	>16 µg/mL
CC[C@H]1OC(=O)[C@@](C)(F)C(=O)[C@H](C)[C@@H](O[C@@H]2O[C@H](C)C[C@H](N(C)C)[C@H]2O)[C@@]2(C)C[C@@H](C)C(=NC(C)=O)[C@H](C)[C@@H](OC/C(=N\OCc3ccc(C(N)=O)s3)CO2)[C@]1(C)O	33929 (ampicillin-resistant)	4 µg/mL
C=C1COC2[C@@H](C)C(=NC(C)=O)[C@H](C)C[C@@](C)(OC1)[C@H](O[C@@H]1O[C@H](C)C[C@H](N(C)C)[C@H]1O)[C@@H](C)C(=O)[C@@H](C)C(=O)O[C@H](CC)[C@@]2(C)O	33929 (ampicillin-resistant)	>64 µg/mL
C[C@@H]1O[C@@H]1P(=O)(O)O	ATCC31517	4 µg/mL
CC[C@H]1OC(=O)[C@@](C)(F)C(=O)[C@H](C)[C@@H](O[C@@H]2O[C@H](C)C[C@H](N(C)C)[C@H]2O)[C@@]2(C)C[C@@H](C)C(=NC(C)=O)[C@H](C)[C@@H](OC/C(=N\OCc3ccc4cnn(C(N)=O)c4c3)CO2)[C@]1(C)O	33929 (ampicillin-resistant)	4 µg/mL
CC[C@H]1OC(=O)[C@H](C)C(=O)[C@H](C)[C@@H](O[C@@H]2O[C@H](C)C[C@H](N(C)C)[C@H]2O)[C@@]2(C)C[C@@H](C)C(=NC(C)=O)[C@H](C)C(OC/C(=C\C#Cc3ccc(N)nc3)CO2)[C@]1(C)O	33929 (ampicillin-resistant)	4 µg/mL
CC(=O)NC[C@H]1CN(c2cc(F)c(N3C[C@@H]4C(C(=O)O)[C@@H]4C3)c(F)c2)C(=O)O1	ATCC31517	4 µg/mL
CC(C)(C)[C@H](NC(=O)C(CC1CCCC1)CN(O)C=O)C(=O)N1CCN(Cc2nccs2)CC1	Isolate 78025	4 µg/mL
CC(=O)NC[C@H]1CN(c2ccc(-c3noc(C(N)=O)n3)c(F)c2)C(=O)O1	UC 30063	>16 µg/mL
CNC(=O)C1[C@H]2CN(c3c(F)cc(N4C[C@H](CNC(C)=O)OC4=O)cc3F)C[C@@H]12	ATCC31517	8 µg/mL
CC[C@H]1OC(=O)C[C@@H](O)[C@H](C)[C@@H](O[C@@H]2O[C@H](C)[C@@H](O)[C@H](N(C)C)[C@H]2O)C(C=O)C[C@@H](C)C(=O)/C=C/C(C)=C/[C@@H]1COC(=O)Nc1ccc(OC)cc1	33929 (ampicillin-resistant)	2 µg/mL
CC[C@H]1OC(=O)[C@H](C)C(=O)[C@H](C)[C@@H](O[C@@H]2O[C@H](C)C[C@H](N(C)C)[C@H]2O)[C@@]2(C)C[C@@H](C)C(=NC(C)=O)[C@H](C)[C@@H](OC/C(=N\OCC#Cc3cncnc3)CO2)[C@]1(C)O	33929 (ampicillin-resistant)	16 µg/mL
CC[C@H]1OC(=O)[C@H](C)C(=O)[C@H](C)[C@@H](O[C@@H]2O[C@H](C)C[C@H](N(C)C)[C@H]2O)[C@@]2(C)C[C@@H](C)C(=NC(C)=O)[C@H](C)C(OC/C(=C\C=C\c3ccc(OC)cc3)CO2)[C@]1(C)O	33929 (ampicillin-resistant)	32 µg/mL
CC[C@H]1OC(=O)C[C@@H](O)[C@H](C)[C@@H](O[C@@H]2O[C@H](C)[C@@H](O)[C@H](N(C)C)[C@H]2O)C(C=O)C[C@@H](C)C(=O)/C=C/C(C)=C/[C@@H]1COC/C=C/c1cnc2ccccc2c1	33929 (ampicillin-resistant)	8 µg/mL
CC[C@H]1OC(=O)[C@H](C)C(=O)[C@H](C)[C@@H](O[C@@H]2O[C@H](C)C[C@H](N(C)C)[C@H]2O)[C@@]2(C)C[C@@H](C)C(=NC(C)=O)[C@H](C)[C@@H](OC/C(=N\OCc3cccc(N)n3)CO2)[C@]1(C)O	33929 (ampicillin-resistant)	4 µg/mL
CC(=O)NC[C@H]1CN(c2ccc(-c3cnn(C(C)=O)c3)c(F)c2)C(=O)O1	UC 30063	16 µg/mL
C=C1COC2[C@@H](C)C(=NC(C)=O)[C@H](C)C[C@@](C)(OC1)[C@H](O[C@@H]1O[C@H](C)C[C@H](N(C)C)[C@H]1O)[C@@H](C)C(=O)[C@@H](C)C(=O)O[C@H](CC)[C@@]2(C)O	33929 (ampicillin-resistant)	>64 µg/mL
CC[C@H]1OC(=O)[C@@](C)(F)C(=O)[C@H](C)[C@@H](O[C@@H]2O[C@H](C)C[C@H](N(C)C)[C@H]2O)[C@@]2(C)C[C@@H](C)C(=NC(C)=O)[C@H](C)[C@@H](OC/C(=N\OCc3ccc(-c4cccc(N)n4)s3)CO2)[C@]1(C)O	33929 (ampicillin-resistant)	4 µg/mL
CC[C@H]1OC(=O)[C@H](C)C(=O)[C@H](C)[C@@H](O[C@@H]2O[C@H](C)C[C@H](N(C)C)[C@H]2O)[C@@]2(C)C[C@@H](C)C(=NC(=O)CO)[C@H](C)C(OC/C(=C\C=C\c3ccccc3)CO2)[C@]1(C)O	33929 (ampicillin-resistant)	16 µg/mL
CC[C@H]1OC(=O)C[C@@H](O)[C@H](C)[C@@H](O[C@@H]2O[C@H](C)[C@@H](O)[C@H](N(C)C)[C@H]2O)C(C=O)C[C@@H](C)C(=O)/C=C/C(C)=C/[C@@H]1COC(=O)Nc1cc(F)cc(F)c1	33929 (ampicillin-resistant)	1 µg/mL
CC[C@H]1OC(=O)[C@H](C)C(=O)[C@H](C)[C@@H](O[C@@H]2O[C@H](C)C[C@H](N(C)C)[C@H]2O)[C@@]2(C)C[C@@H](C)C(=NC(C)=O)[C@H](C)[C@@H](OC/C(=N\OCc3ccc(C(N)=O)cc3)CO2)[C@]1(C)O	33929 (ampicillin-resistant)	4 µg/mL
C=C1COC2[C@@H](C)/C(=N/OCOC)[C@H](C)C[C@@](C)(OC1)[C@H](O[C@@H]1O[C@H](C)C[C@H](N(C)C)[C@H]1O)[C@@H](C)C(=O)[C@@H](C)C(=O)O[C@H](CC)[C@@]2(C)O	33929 (ampicillin-resistant)	>64 µg/mL
CC[C@H]1OC(=O)[C@@](C)(F)C(=O)[C@H](C)[C@@H](O[C@@H]2O[C@H](C)C[C@H](N(C)C)[C@H]2O)[C@@]2(C)C[C@@H](C)C(=NC(C)=O)[C@H](C)[C@@H](OC/C(=N\OCc3cccc(C(N)=O)c3)CO2)[C@]1(C)O	33929 (ampicillin-resistant)	4 µg/mL
CC[C@H]1OC(=O)[C@H](C)C(=O)[C@H](C)[C@@H](O[C@@H]2O[C@H](C)C[C@H](N(C)C)[C@H]2O)[C@@]2(C)C[C@@H](C)C(=NC(C)=O)[C@H](C)[C@@H](OC/C(=N\Oc3ccccc3)CO2)[C@]1(C)O	33929 (ampicillin-resistant)	32 µg/mL
CC[C@H]1OC(=O)C[C@@H](O)[C@H](C)[C@@H](O[C@@H]2O[C@H](C)[C@@H](O)[C@H](N(C)C)[C@H]2O)C(C=O)C[C@@H](C)C(=O)/C=C/C(C)=C/[C@@H]1COC(=O)Nc1ccc(Br)cc1	33929 (ampicillin-resistant)	1 µg/mL
CC(=O)NC[C@H]1CN(c2ccc(-c3cnn(Cc4ccccc4)c3)c(F)c2)C(=O)O1	UC 30063	>64 µg/mL
CC[C@H]1OC(=O)[C@H](C)C(=O)[C@H](C)[C@@H](O[C@@H]2O[C@H](C)C[C@H](N(C)C)[C@H]2O)[C@](C)(OC)C[C@@H](C)C(=O)[C@H](C)[C@H]2N(CCCCn3cnc(-c4cccnc4)c3)C(=O)O[C@]12C	33929 (ampicillin-resistant)	2 µg/mL
CC[C@H]1OC(=O)[C@H](C)[C@@H](O[C@H]2C[C@@](C)(OC)[C@@H](O)[C@H](C)O2)[C@H](C)[C@@H](O[C@H]2O[C@@H](C)C[C@@H](N(C)C)[C@@H]2O)[C@](C)(O)C[C@@H](C)C(=O)[C@H](C)[C@@H](O)[C@]1(C)O	33929 (ampicillin-resistant)	4 µg/mL
CC[C@H]1OC(=O)[C@H](C)C(=O)[C@H](C)[C@@H](O[C@@H]2O[C@H](C)C[C@H](N(C)C)[C@H]2O)[C@@]2(C)C[C@@H](C)C(=NC(C)=O)[C@H](C)C(OC/C(=C\C=C\c3ccc(F)cc3)CO2)[C@]1(C)O	33929 (ampicillin-resistant)	16 µg/mL

Again, the opening 4 rows:

{"structure": "CC[C@H]1OC(=O)[C@H](C)C(=O)[C@H](C)[C@@H](O[C@@H]2O[C@H](C)C[C@H](N(C)C)[C@H]2O)[C@@]2(C)C[C@@H](C)/C(=N\\C(=O)OC)[C@H](C)C(OC/C(=C\\C=C\\c3ccccc3)CO2)[C@]1(C)O", "strain or isolate": "33929 (ampicillin-resistant)", "result": "32 µg/mL"}
{"structure": "CC[C@H]1OC(=O)[C@H](C)C(=O)[C@H](C)[C@@H](O[C@@H]2O[C@H](C)C[C@H](N(C)C)[C@H]2O)[C@@]2(C)C[C@@H](C)C(=NC(C)=O)[C@H](C)[C@@H](OC/C(=N\\OCc3ccc4nc(N)sc4c3)CO2)[C@]1(C)O", "strain or isolate": "33929 (ampicillin-resistant)", "result": "2 µg/mL"}
{"structure": "CC(=O)NC[C@H]1CN(c2ccc(-c3noc(C)n3)c(F)c2)C(=O)O1", "strain or isolate": "UC 30063", "result": ">16 µg/mL"}
{"structure": "CC[C@H]1OC(=O)[C@@](C)(F)C(=O)[C@H](C)[C@@H](O[C@@H]2O[C@H](C)C[C@H](N(C)C)[C@H]2O)[C@@]2(C)C[C@@H](C)C(=NC(C)=O)[C@H](C)[C@@H](OC/C(=N\\OCc3ccc(C(N)=O)s3)CO2)[C@]1(C)O", "strain or isolate": "33929 (ampicillin-resistant)", "result": "4 µg/mL"}